Results of unrelated studies side by side (data: NIAID ChemDB).

All rows: tests in culture

Two numbers with a dash give a range or band.

compound,conditions,species,method,strain,tested at,cells,endpoint,result
COc1cccc(C=O)c1O,-,Aspergillus terreus,agar,UAB680,-,-,MIC,500 µM
CCO/N=C/c1ccc(OCCC2CCN(c3ccc(C)nn3)CC2)cc1,-,Rhinovirus,neutral red,1983-CV48 (ICAM-1 receptor group 66),-,KB,EC50,0.001 µM
Nc1ncnc2c1ncn2[C@@H]1C[C@@H](O)[C@H](CO)O1,-,Duck hepatitis B virus,-,-,-,PDH,EC50,0.0009 µM
O=c1cc(C(F)(F)F)[nH]c(=S)[nH]1,-,Toxoplasma gondii,MTS,-,-,-,EC50,32.2 µM
O=C(O)c1cc2oc3ccccc3c2cc1O,-,Rhinovirus,plaque count,TYPE 16,50 µM,HELA-H1,inhibition,95%
Cc1cn([C@H]2C=C[C@@H](CO)O2)c(=O)[nH]c1=O,-,Duck hepatitis B virus,antigen,-,-,Primary duck hepatocytes,EC50,50 µg/mL
NC(=NCCC[C@H](N)C(=O)O)N[C@@H](CC(=O)O)C(=O)O,-,Herpes simplex virus 1,cytopathic effect,KOS,-,HeLa,EC50,>200 µg/mL
CCN1CCC2(C1)C1CC3CC(C1)CC2C3,-,Rhinovirus,-,-,100 µM,HeLa,inhibition,>70%
c1ccc2c(c1)CCc1ccccc1C2,-,Rhinovirus,cytopathic effect,TYPE 16,-,HELA-H1,EC50,>200 µM
Nc1ncnc2c1ncn2CCOCP(=O)(O)O,-,Cytomegalovirus,plaque count,AD169,-,HEL,EC50,20 µg/mL
C#CC[C@@H](C(=O)N[C@H](/C=C/C(=O)OCC)C[C@@H]1CCNC1=O)n1cccc(NC(=O)c2cc(C)on2)c1=O,-,Rhinovirus,cytopathic effect / XTT,Serotype 39,-,H1-HELA,EC90,0.088 µM
COc1cc(C(=O)O)ccc1O,-,Adenovirus,cytopathic effect,TYPE 3,-,BCC-1/KMC,EC50,>200 µg/mL
CO[C@H]1/C=C/O[C@@]2(C)Oc3c(C)c(O)c4c(O)c(c5c(c4c3C2=O)NC2(CCN(CC(C)C)CC2)N=5)=NC(=O)/C(C)=C\C=C\[C@H](C)[C@H](O)[C@@H](C)[C@@H](O)[C@@H](C)[C@H](OC(C)=O)[C@@H]1C,-,Staphylococcus aureus,-,20 strains (methicillin-resistant),-,-,MIC50,0.0313 µg/mL
Cc1cn([C@H]2C[C@H](N=[N+]=[N-])[C@@H](CO)O2)c(=O)[nH]c1=O,-,Duck hepatitis B virus,antigen,-,-,Primary duck hepatocytes,EC50,10 µg/mL
COc1c(N2CCNC(C)C2)c(F)cc2c(=O)c(C(=O)O)cn(C3CC3)c12,-,Staphylococcus aureus,-,24 strains (ofloxacin-susceptible),-,-,MIC50,0.12 µg/mL
CCCCCCCCCCCCCCCC(=O)OCC(O)CO,-,Herpes simplex virus 1,cytopathic effect,KOS,-,HeLa,EC50,>200 µg/mL
C/C(=C\Cc1ccccc1)CCC[C@H](C)C[C@]1(C)C[C@@]2(C)OC(=O)C[C@H]2OO1,-,Toxoplasma gondii,-,RH,10 µM,HFF,inhibition,72%
Nc1ccc(S(=O)(=O)Nc2ncccn2)cc1,-,Toxoplasma gondii,-,-,1 µg/mL,-,inhibition,40%
C=C1CC[C@H](O)C/C1=C/C=C1\CCC[C@]2(C)[C@@H]([C@H](C)CCCC(C)C)CC[C@@H]12,-,Toxoplasma gondii,-,RH,0.1 µM,-,inhibition,>50%
CO[C@H](C)[C@@H](NC(=O)[C@@H]1CCCN1C)[C@@H]1O[C@@H](SCCOC(=O)c2ccccc2O)[C@@H](O)[C@H](O)[C@H]1O,-,Herpes simplex virus 1,cytopathic effect,KOS,-,HeLa,EC50,>200 µg/mL
CCOC(=O)P(=O)(OC)OC[C@H]1O[C@@H](n2cc(CCCl)c(=O)[nH]c2=O)C[C@@H]1O,-,Herpes simplex virus 1,cytopathic effect,TK-,68.1 µM,VERO,inhibition,>25%
Nc1nc(-c2ccc(Br)cc2Br)c(SCC(=O)Nc2ccccc2N)s1,-,Influenza A virus (H1N1),MTS,A/PR/8/34,-,MDCK cells,EC50,0.73 µM
Nc1ncnc2c1ncn2C[C@@H](CO)OCP(=O)(O)O,-,Duck hepatitis B virus,antigen,-,-,Primary duck hepatocytes,EC50,0.41 µg/mL
Nc1nc(N)c2ncn(CC(CO)OCP(=O)(O)O)c2n1,-,Cytomegalovirus,plaque count,DAVIS,-,HEL,EC50,3 µg/mL
CCCCCCCCCCN1[C@H](CN)[C@@H](O)[C@H](O)[C@H]1CO,-,Dengue virus,-,-,-,-,EC50,>50 µM
COc1ccc(/C=N/n2c(S[C@@H]3O[C@H](COC(C)=O)[C@@H](OC(C)=O)[C@H](OC(C)=O)[C@H]3OC(C)=O)nnc2-c2cccnc2)cc1,-,Aspergillus fumigatus,agar diffusion / agar,-,2.5 mg/mL,-,zone,1–5 mm
O=C(CP(=O)(O)O)OC[C@H]1O[C@@H](n2cc(CCCl)c(=O)[nH]c2=O)C[C@@H]1O,-,Herpes simplex virus 1,cytopathic effect,BRAND,24.2 µM,VERO,inhibition,>25%
CC/C=C\C/C=C\C/C=C\CCCCCCCCO,-,Herpes simplex virus 1,cytopathic effect,KOS,-,HeLa,EC50,>200 µg/mL
CN(C)C(=O)/N=N/C(=O)N(C)C,-,Tacaribe virus,cytopathic effect,-,-,VERO,EC50,>100 µM
Cc1cn(COC2CP(=O)(Oc3ccccc3)OC2C)c(=O)[nH]c1=O,-,Sandfly fever virus,cytopathic effect,Sicilian strain Vero cells,-,-,EC50,>320 µg/mL
CC(C)[C@H](NC(=O)c1ccc2ccccc2n1)C(=O)N[C@@H](Cc1ccccc1)[C@H](O)CN1CC[C@@H](OCc2ccncc2)C[C@H]1C(=O)NC(C)(C)C,-,SIV,p27 / antigen,MAC251,-,CEMx174,EC50,0.004 µM
CCCCCCCCCCCCCCCC(=O)OCC(O)COC(=O)CCCCCCCCCCCCCCC,-,Herpes simplex virus 1,cytopathic effect,KOS,-,HeLa,EC50,>200 µg/mL
CO[C@H]1/C=C/O[C@@]2(C)Oc3c(C)c(O)c4c(O)c(c(/C=N/N5CCN(C)CC5)c(O)c4c3C2=O)NC(=O)/C(C)=C\C=C\[C@H](C)[C@H](O)[C@@H](C)[C@@H](O)[C@@H](C)[C@H](OC(C)=O)[C@@H]1C,-,Staphylococcus aureus,-,16 strains (methicillin- quinolone-resistant),-,-,MIC90,1 µg/mL
NC(=NC1CC1)c1ccc(N2CCN(c3ccc(C(N)=NC4CC4)cc3)CC2)cc1,-,Pneumocystis carinii,-,-,-,A549,EC50,3.01 µg/mL
CC(O)C(CP(=O)(O)O)OCn1ccc(=O)[nH]c1=O,-,Sandfly fever virus,cytopathic effect,Sicilian strain Vero cells,-,-,EC50,>320 µg/mL
Nc1ncnc2c1ncn2[C@@H]1O[C@](F)(COS(N)(=O)=O)[C@@H](O)[C@H]1O,-,Herpes simplex virus 1,cytopathic effect,KOS,-,HeLa,EC50,>100 µg/mL
NC(=O)c1c[se]c([C@@H]2O[C@H](CO)[C@@H](O)[C@H]2O)n1,-,Pichinde virus,plaque count,COAN3739,-,VERO 76,EC50,4 µg/mL
O=c1cc(-c2ccccc2)oc2cc(O)c(O)c(O)c12,-,Adenovirus,cytopathic effect,TYPE 11,-,BCC-1/KMC,EC50,>20 µg/mL
NC(=O)c1ncn([C@@H]2O[C@H](CO)[C@@H](O)[C@H]2O)n1,-,Pichinde virus,antigen,-,-,VERO 76,EC50,4.6 µg/mL
C[C@@H]1CC[C@H]2[C@@H](C)C(=O)O[C@@H]3OC4(C)CC[C@@H]1[C@]32OO4,-,Plasmodium falciparum,LDH,K1,-,Erythrocyte,EC50,0.006 µg/mL
CC1(C)CC[C@]2(C(=O)O)CC[C@]3(C)C(=CC[C@@H]4[C@@]5(C)CC[C@H](O)C(C)(C)[C@@H]5CC[C@]43C)[C@@H]2C1,-,Adenovirus,cytopathic effect,TYPE 3,-,BCC-1/KMC,EC50,>40 µg/mL
CN1CCC2(C1)C1CC3CC(C1)CC2C3,-,Rhinovirus,-,-,100 µM,HeLa,inhibition,>70%
Nc1ncn([C@@H]2O[C@H](CO)[C@@H](O)[C@H]2O)c(=O)n1,-,Duck hepatitis B virus,antigen,-,-,Primary duck hepatocytes,EC50,30 µg/mL
Nc1nc2c(ncn2COCCOCP(=O)(O)O)c(=O)[nH]1,-,Mouse cytomegalovirus,plaque count,WILD TYPE,-,C1271,EC50,4.3 µM
O=c1[nH]c(=O)n([C@@H]2O[C@H](CO)[C@@H](O)[C@@H]2O)cc1/C=C/Br,-,Duck hepatitis B virus,antigen,-,-,Primary duck hepatocytes,EC50,50 µg/mL
N[C@@H]1CN(c2c(F)cc3c(=O)c(C(=O)O)cn([C@@H]4C[C@@H]4F)c3c2Cl)CC12CC2,-,Haemophilus influenzae,-,38 strains (ampicillin-susceptible),-,-,MIC90,≤0.004 µg/mL
N/C(=N\O)c1ccc(C(=O)Nc2ccc(NC(=O)c3ccc(/C(N)=N/O)cc3)cc2)cc1,-,Pneumocystis carinii,-,-,-,A549,EC50,83.3 µg/mL
O=C(O)P(=O)(O)O,28 d,HIV-1,RT activity,IIIB,32 µM,PBL,inhibition,68%
CCOC(=O)CP(=O)(OC)OC[C@H]1O[C@@H](n2cc(CCCl)c(=O)[nH]c2=O)C[C@@H]1O,-,Herpes simplex virus 1,cytopathic effect,TK-,66 µM,VERO,inhibition,>25%
N/C(=N\O)c1ccc(C(=O)Nc2cccc(NC(=O)c3ccc(/C(N)=N/O)cc3)c2)cc1,-,Pneumocystis carinii,-,-,-,A549,EC50,15.1 µg/mL
COc1ccc(OC)c(C=O)c1,-,Aspergillus terreus,agar,UAB698,-,-,MIC,1000 µM
Oc1cc(O)c2c(c1)OC(c1ccc(O)c(O)c1)[C@@H](O)C2,-,Candida tropicalis,broth dilution,Clinical isolate 4,-,-,MIC50,>128 µg/mL
O=c1[nH]c(=O)n([C@H]2C[C@H](O)[C@@H](CO)O2)cc1Br,-,Duck hepatitis B virus,antigen,-,-,Primary duck hepatocytes,EC50,>50 µg/mL
CO[C@@H]1C[C@@H](C[C@H]2CC[C@H](C)[C@H]([C@@H](C)C(=O)O)O2)O[C@]2(O[C@](C)([C@H]3CC[C@@](C)([C@@H]4O[C@@H]([C@H]5O[C@@](O)(CO)[C@H](C)C[C@@H]5C)C[C@@H]4C)O3)C[C@H]2C)[C@@H]1C,-,Toxoplasma gondii,uracil uptake / radiometric,RH,0.005 µg/mL,-,inhibition,0%
OC1c2ccccc2C=Cc2ccccc21,-,Rhinovirus,plaque count,TYPE 16,50 µM,HELA-H1,inhibition,80%
CCOC(=O)P(=O)(OC)OC[C@H]1O[C@@H](n2cc(I)c(=O)[nH]c2=O)C[C@@H]1O,-,Herpes simplex virus 2,cytopathic effect,K979,5.9 µM,VERO,inhibition,>25%
O=C(O)/C=C/c1ccc(O)c(O)c1,-,Adenovirus,cytopathic effect,TYPE 8,-,BCC-1/KMC,EC50,>200 µg/mL
Nc1nc2c(ncn2COCCO)c(=O)[nH]1,-,Duck hepatitis B virus,antigen,-,-,Primary duck hepatocytes,EC50,>50 µg/mL
NNC(=O)c1ccc(N2CCN(c3ccc(C(=O)NN)cc3)CC2)cc1,-,Pneumocystis carinii,-,-,-,A549,EC50,6.02 µg/mL
CC(=O)OC[C@H]1O[C@@H](n2[nH]c(-c3ccccc3)[n+](/N=C/c3ccc(Cl)cc3)c2=S)[C@H](OC(C)=O)[C@@H](OC(C)=O)[C@@H]1OC(C)=O,-,Aspergillus fumigatus,agar diffusion / agar,-,2.5 mg/mL,-,zone,1–5 mm
Nc1ncc2ncn(CCOCP(=O)(O)O)c2n1,-,Cytomegalovirus,cytopathic effect,AD169,-,HEL,EC50,200 µg/mL
COP(=O)(CC(=O)O[C@H]1C[C@H](n2cc(CCCl)c(=O)[nH]c2=O)O[C@@H]1CO)OC,-,Herpes simplex virus 2,cytopathic effect,K979,22.7 µM,VERO,inhibition,>25%
C=C[C@H]1CN2CC[C@H]1C[C@H]2[C@H](O)c1ccnc2ccc(OC)cc12,-,Herpes simplex virus 1,cytopathic effect,KOS,-,HeLa,EC50,>200 µg/mL
Nc1ncnc2c1ncn2[C@@H]1C=C(CO)[C@@H](O)[C@H]1O,-,Tacaribe virus,-,-,-,-,MIC,0.3 µg/mL
O=[N+]([O-])c1ccc(N2CCN(c3ccc([N+](=O)[O-])cc3)CC2)cc1,-,Pneumocystis carinii,-,-,-,A549,EC50,34.1 µg/mL
CN1CCC2(CC3CCC2(C)C3(C)C)C1,-,Rhinovirus,-,-,100 µM,HeLa,inhibition,>70%
CCOC(=O)CP(=O)(OC)OC[C@H]1O[C@@H](n2cc(I)c(=O)[nH]c2=O)C[C@@H]1O,-,Herpes simplex virus 1,cytopathic effect,TK-,57.9 µM,VERO,inhibition,>25%
Nc1nc2c(ncn2COC(CO)CO)c(=O)[nH]1,-,Duck hepatitis B virus,antigen,-,-,Primary duck hepatocytes,EC50,50 µg/mL
C1CC2(CN1)C1CC3CC(C1)CC2C3,-,Rhinovirus,-,-,100 µM,HeLa,inhibition,>70%
CN(C)[C@@H]1C(=O)C(C(N)=O)=C(O)[C@@]2(O)C(=O)C3=C(O)c4c(O)c(NC(=O)CNc5ccccc5)cc(F)c4C[C@H]3C[C@@H]12,-,Staphylococcus aureus,agar diffusion,158-tet,-,-,EC50,2 µg/mL
CO/N=C1\CN(c2nc3c(cc2F)c(=O)c(C(=O)O)cn3C2CC2)CC1CN,-,Haemophilus influenzae,-,HI43,-,-,MIC,0.125 µg/mL
Nc1nc(N)c2ncn(CCOCP(=O)(O)O)c2n1,-,Duck hepatitis B virus,-,-,-,-,MIC,1 µg/mL
COc1c(N2C[C@@H]3CCCN[C@@H]3C2)c(F)cc2c(=O)c(C(=O)O)cn(C3CC3)c12,-,Staphylococcus aureus,-,24 strains (ofloxacin-susceptible),-,-,MIC90,0.12 µg/mL
O=c1ccn(CC(CO)OCP(=O)(O)O)c(=O)[nH]1,-,Cytomegalovirus,plaque count,AD169,-,HEL,EC50,20 µg/mL
COc1ccccc1C=O,-,Aspergillus terreus,agar,UAB673,-,-,MIC,2500 µM
Cc1cc(O)c2c(c1)C(=O)c1cccc(O)c1C2=O,-,Ross river virus,cytopathic effect,-,-,VERO,EC50,>25 µg/mL
NC12CC3CC(CC(C3)C1)C2,-,Influenza A virus,-,A/Maryland/104/68,-,-,MIC,0.05 µg/mL

Zone: diameter of growth inhibition. ECn is the concentration giving n% inhibition of infection, replication or growth. Neighbouring rows are from separate reports. A number after MIC or MFC names an inhibition level or a share of isolates. An empty or dashed field is not shown. Inhibition is in % at the dose shown (toxicity tests: loss of growth or viability).